According to PMC7804251 (Communications Biology, 2021):

Target: T1, cellular prion protein (PrP) (Mus musculus, UniProt P04925)
T1 construct: gene Prnp

C[n+]1ccc(C2=C3C=CC4=[N+]3[Fe-]35[n]6c2ccc6C(c2cc[n+](C)cc2)=C2C=CC(=[N+]23)C(c2cc[n+](C)cc2)=c2ccc([n]25)=C4c2cc[n+](C)cc2)cc1 [TP, Fe3+-TMPyP]
dynamic mass redistribution (DMR), immobilized recombinant PrP: TP shows a detectable affinity for both full-length, human, and N-terminally deleted, mouse PrP molecules
